From publication PMC8481291 (Nature Communications, 2021)

B1: Omp2a (natural protein)
chain: ADAIVAPEPEAVEYVRVCDAYGAGYFYIPGTETCLRVHGYVRYDVKGGDDVYSGTDRNGWDKGARFALMFNTNSETELGTLGTYTQLRFNYTSNNSRHDGQYGDFSDDRDVADGGVSTGTDLQFAYITLGGFKVGIDESEFHTFTGYLGDVINDDVVAAGSYRTGKIAYTFTGGNGFSAVIALEQGGEDVDNDYTIDGYMPHVVGGLKYAGGWGSIAGVVAYDSVIEEWATKVRGDVNITDRFSVWLQGAYSSAATPNQNYGQWGGDWAVWGGAKFIAPEKATFNLQAAHDDWGKTAVTANVAYQLVPGFTITPEVSYTKFGGEWKDTVAEDNAWGGIVRFQRSF

Assays:
[1] = target: tES–F116H(+) (Archaeoglobus fulgidus)
[2] = target: tES–F116H(+/–) (Archaeoglobus fulgidus)
[3] = target: the molecule itself

Row | Molecule | stoichiometry N (Omp2a per tES shell) [1] | stoichiometry N (Omp2a per tES shell) [2] | stoichiometry N [3]
1 | Omp2a (from UniProt Q7CNU3 23-367) | 1 | 1 | 
2 | B1 |  |  | 3
